Compound potency records, mixed from different reports. Data source: NIAID ChemDB in PubChem.

Shared fields: whole-cell or culture tests; species: Candida parapsilosis

Conditions beyond the fields shown may differ between rows. MIC50, MIC90 and the like: level of inhibition, or share of isolates inhibited. Blank or dashed fields: not listed here.

O=C(NNC(=S)Nc1ccc(F)cc1F)c1cc2ccccc2[nH]1 ; method: agar ; measure: MIC ; strain: ATCC 22019 ; value: 100 µg/mL
C[C@@H]1O[C@@H](O[C@H]2[C@H](O)[C@@H](O)C(OC3[C@H](O[C@H]4CC[C@@]5(C)[C@@H](CC[C@]6(C)[C@@H]5CC=C5[C@@H]7CC(C)(C)CC[C@]7(C(=O)O)CC[C@]56C)[C@]4(C)CO)OC[C@H](O)[C@@H]3O)O[C@@H]2CO)[C@H](O)[C@H](O)[C@H]1O ; measure: MFC ; strain: Clinical isolates ; value: 12.5 µg/mL
O=C(COc1cccc2ccccc12)OC1CCN(CC(O)(Cn2cncn2)c2ccc(F)cc2F)CC1 ; method: broth dilution ; measure: MIC80 ; strain: 0306392 ; value: 0.479 µM
CCOC(=O)C1C(=O)C=C(c2ccc(Br)cc2)CC1c1ccc(C2CC(c3ccc(Br)cc3)=CC(=O)C2C(=O)OCC)cc1 ; measure: MIC ; strain: Clinical isolate ; value: 6.25 µg/mL
COc1ccc(/C=C/C(=O)OC2CCN(CC(O)(Cn3cncn3)c3ccc(F)cc3F)CC2)cc1 ; method: broth dilution ; measure: MIC80 ; strain: 0306392 ; value: 0.125 µM
CC(C)(O)c1cn(-c2ccc(Cl)cc2)nn1 ; method: broth dilution ; measure: MIC ; strain: URM 3624 ; value: 64 µg/mL
O=c1c(N2CCOCC2)c(N2CCN(S(=O)(=O)Cc3ccccc3)CC2)cnn1-c1ccccc1 ; method: broth dilution ; measure: MIC ; strain: C231 ; value: 200 µg/mL
CCCCCCCCCCC(=O)OC1CCN(CC(O)(Cn2cncn2)c2ccc(F)cc2F)CC1 ; method: broth dilution ; measure: MIC80 ; strain: 0306392 ; value: 2.031 µM
CC(C)CC1NC(=O)CC(CCCCCCCCC(C)O)OC(=O)C(CC(C)C)NC(=O)C(CC(C)C)NC(=O)C(CC(C)C)NC(=O)C(C(C)C)NC(=O)C(CC(=O)O)NC(=O)C(CC(C)C)NC1=O ; method: visual reading ; measure: MFC ; strain: MTCC 19658 ; value: 2 µg/mL
OC(CCn1ccnc1)c1ccc(Br)cc1 ; method: broth dilution ; measure: MIC ; strain: RTCC 1018 ; value: 64 µg/mL
CCOC(=O)C1C(=O)C=C(c2ccc(OC)cc2)CC1c1ccc(C2CC(c3ccc(OC)cc3)=CC(=O)C2C(=O)OCC)cc1 ; measure: MIC ; strain: Clinical isolate ; value: 50 µg/mL
O=C(CCn1ccnc1)c1cccc(C(O)c2ccc(Cl)cc2)c1 ; method: broth dilution ; measure: MIC ; strain: RTCC 1018 ; value: 32 µg/mL
C[C@H]1[C@H](O)[C@@H](C)/C=C/C=C/C=C/C=C/C=C/C=C/C=C/[C@H](O[C@@H]2O[C@H](C)[C@@H](O)[C@H](N)[C@@H]2O)C[C@@H]2O[C@](O)(C[C@@H](O)C[C@@H](O)CC[C@H](O)[C@@H](O)C[C@@H](O)CC(=O)O[C@H]1C)C[C@H](O)[C@H]2C(=O)O ; method: broth dilution ; measure: MFC ; strain: MTCC 1965 ; value: 1 µg/mL
O=C(/C=C/c1cccc(Br)c1)OC1CCN(CC(O)(Cn2cncn2)c2ccc(F)cc2F)CC1 ; method: broth dilution ; measure: MIC80 ; strain: 0306392 ; value: 0.458 µM
C[C@@H]1O[C@@H](O[C@H]2[C@H](O[C@H]3CC[C@]4(C)[C@H]5CC=C6[C@@H]7CC(C)(C)CC[C@]7(C(=O)O)CC[C@@]6(C)[C@]5(C)CC[C@H]4C3(C)C)OC[C@H](O)[C@@H]2O)[C@H](O)[C@H](O)[C@H]1O ; measure: MFC ; strain: Clinical isolates ; value: >100 µg/mL
O=C(/C=C/c1ccccc1Cl)OC1CCN(CC(O)(Cn2cncn2)c2ccc(F)cc2F)CC1 ; method: broth dilution ; measure: MIC80 ; strain: 0306392 ; value: 0.498 µM
CC(=O)NNC(=O)NCCCCCCNC(=O)NNC(C)=O ; measure: MIC ; value: 7.5 µg/mL
O=C(CCn1ccnc1)c1cccc(C(O)c2ccc(Cl)c(Cl)c2)c1 ; method: broth dilution ; measure: MIC ; strain: RTCC 1018 ; value: 32 µg/mL
C[C@@H]1O[C@@H](O[C@H]2[C@H](O)[C@@H](O)C(OC3[C@H](O[C@H]4CC[C@]5(C)[C@H]6CC=C7[C@@H]8CC(C)(C)CC[C@]8(C(=O)O)CC[C@@]7(C)[C@]6(C)CC[C@H]5C4(C)C)OC[C@H](O)[C@@H]3O)O[C@@H]2CO)[C@H](O)[C@H](O)[C@H]1O ; measure: MFC ; strain: Clinical isolates ; value: >100 µg/mL
O=C(/C=C/c1ccccc1Br)OC1CCN(CC(O)(Cn2cncn2)c2ccc(F)cc2F)CC1 ; method: broth dilution ; measure: MIC80 ; strain: 0306392 ; value: 0.458 µM
COc1ccccc1NC(=S)NNC(=O)c1cc2ccccc2cn1 ; method: agar ; measure: MIC ; strain: ATCC 22019 ; value: 50 µg/mL
O=C(CCn1ccnc1)c1ccc(Cl)cc1 ; method: broth dilution ; measure: MIC ; strain: RTCC 1079 ; value: >64 µg/mL
CCOC(=O)C1C(=O)C=C(c2ccc(Cl)cc2)CC1c1ccc(C2CC(c3ccc(Cl)cc3)=CC(=O)C2C(=O)OCC)cc1 ; measure: MIC ; strain: Clinical isolate ; value: 12.5 µg/mL
O=C(NNC(=S)Nc1ccc(F)cc1)c1cc2ccccc2[nH]1 ; method: agar ; measure: MIC ; strain: ATCC 22019 ; value: 100 µg/mL
OC(CCn1ccnc1)c1cccc(C(O)c2ccc(Cl)c(Cl)c2)c1 ; method: broth dilution ; measure: MIC ; strain: RTCC 1018 ; value: >64 µg/mL
Cn1cccc1-c1n[nH]c(=O)n1CCCCCCn1c(-c2cccn2C)n[nH]c1=O ; measure: MIC ; value: 7.5 µg/mL
CC1(C)CC[C@]2(C(=O)O)CC[C@]3(C)C(=CC[C@@H]4[C@@]5(C)CC[C@H](OC6O[C@H](CO)[C@@H](O)[C@H](O)[C@H]6O)[C@@](C)(CO)[C@@H]5CC[C@]43C)[C@@H]2C1 ; measure: MFC ; strain: Clinical isolates ; value: >100 µg/mL
CCC(C)n1ncn(-c2ccc(N3CCN(c4ccc(OC[C@H]5CO[C@](Cn6cncn6)(c6ccc(Cl)cc6Cl)O5)cc4)CC3)cc2)c1=O ; method: broth dilution ; measure: MIC80 ; strain: 0306392 ; value: 0.354 µM
O=c1[nH]nc(-c2ccccc2)n1CCCCCCn1c(-c2ccccc2)n[nH]c1=O ; measure: MIC ; value: 7.5 µg/mL
Cc1nnsc1C(=O)NNC(=S)Nc1ccccc1Br ; method: agar ; measure: MIC ; strain: ATCC 22019 ; value: 100 µg/mL
COC(=O)c1c(C)oc2cc(C(=O)C(Br)Br)c(O)c(Br)c12 ; measure: MIC ; strain: ATCC 22019 ; value: 100 µg/mL
CCCCCCCCCCCCC(=O)OC1CCN(CC(O)(Cn2cncn2)c2ccc(F)cc2F)CC1 ; method: broth dilution ; measure: MIC80 ; strain: 0306392 ; value: 1.922 µM
CCCCCCCCCCCCCCCC(=O)NC(CCCCN)C(=O)NC(CCCCN)C(N)=O ; method: broth dilution ; measure: MIC ; strain: 4882 ; value: 0.5 µg/mL
CCC(C)CC(C)CCCCCCCCC(=O)N[C@H]1C[C@@H](O)[C@H](NCCN)NC(=O)[C@@H]2[C@@H](O)CCN2C(=O)[C@H]([C@H](O)CCN)NC(=O)[C@H]([C@H](O)[C@@H](O)c2ccc(O)cc2)NC(=O)[C@@H]2C[C@@H](O)CN2C(=O)[C@H]([C@@H](C)O)NC1=O ; method: broth dilution ; measure: MIC ; strain: C231 ; value: 0.125 µg/mL
CCCC(C)(C)C(=O)OC1CCN(CC(O)(Cn2cncn2)c2ccc(F)cc2F)CC1 ; method: broth dilution ; measure: MIC80 ; strain: 0306392 ; value: 0.573 µM

The first 2 rows once more:

smiles | method | measure | strain | value
O=C(NNC(=S)Nc1ccc(F)cc1F)c1cc2ccccc2[nH]1 | agar | MIC | ATCC 22019 | 100 µg/mL
C[C@@H]1O[C@@H](O[C@H]2[C@H](O)[C@@H](O)C(OC3[C@H](O[C@H]4CC[C@@]5(C)[C@@H](CC[C@]6(C)[C@@H]5CC=C5[C@@H]7CC(C)(C)CC[C@]7(C(=O)O)CC[C@]56C)[C@]4(C)CO)OC[C@H](O)[C@@H]3O)O[C@@H]2CO)[C@H](O)[C@H](O)[C@H]1O | - | MFC | Clinical isolates | 12.5 µg/mL